Results of unrelated studies side by side (data: NIAID ChemDB).

Shared fields: tests in culture; species: Cryptosporidium parvum

Rows are shuffled and stem from different studies.

SMILES	cells	read-out	strain	method	value
CC1NC(=O)C(C)NC(=O)C2CCCN2C(=O)C(CCCCCC(=O)C2CO2)NC1=O		MIC			0.18 µg/mL
O=c1c(O)c(-c2ccc(O)c(O)c2)oc2cc(O)cc(O)c12	HCT-8	EC50			30 µM
Cc1cn([C@H]2C[C@H](N=[N+]=[N-])[C@@H](CO)O2)c(=O)[nH]c1=O	L929	EC50	Calf isolate		<20 µg/mL
CC(=O)N[C@@H](CC(C)C)C(=O)N[C@@H](CC(C)C)C(=O)N[C@H](C=O)CCCN=C(N)N		EC50		cell count / microscopy	<500 µg/mL
NC[C@@H]1O[C@H](O[C@H]2[C@@H](O)[C@H](O[C@@H]3[C@@H](O)[C@H](N)C[C@H](N)[C@H]3O[C@H]3O[C@H](CO)[C@@H](O)[C@H](O)[C@H]3N)O[C@@H]2CO)[C@H](N)[C@@H](O)[C@@H]1O	Caco2	EC50			<100 µM
CS(=O)(=O)c1cnc(NC(=O)c2ccccc2O)s1		EC50			4.6 µg/mL
CCCN(CCC)c1c([N+](=O)[O-])cc(C(F)(F)F)cc1[N+](=O)[O-]		EC50			0.7 µM
CCOC(=O)c1oc2cc(O)cc(O)c2c(=O)c1-c1cccc(Br)c1		EC50			3.38 µg/mL
CC1(C)N=C(N)N=C(N)N1c1ccc(Cl)cc1	L929	EC50	Calf isolate		>20 µg/mL
CC[C@H]1OC(=O)[C@H](C)[C@@H](O[C@H]2C[C@@](C)(OC)[C@@H](O)[C@H](C)O2)[C@H](C)[C@@H](O[C@@H]2O[C@H](C)C[C@H](N(C)C)[C@H]2O)[C@](C)(O)C[C@@H](C)CN(C)[C@H](C)[C@@H](O)[C@]1(C)O		EC50		cell count	>50 µM
O=S(=O)(F)Cc1ccccc1		EC50			<3000 µM
CC[C@@H]1O[C@@H]([C@]2(C)C[C@@H](C)[C@](O)([C@]3(C)CC[C@@H]([C@@H](O)[C@]4(O)O[C@H](C[C@@]5(O)O[C@@H]([C@@H](C)[C@H](O)C[C@@H]6O[C@H]([C@@H](C)C(=O)O)[C@@H](C)C[C@H]6C)CC[C@@H]5C)[C@@H](C)C[C@H]4C)O3)O2)CC[C@@]1(C)O	HCT-8	EC50			<1 µM
O=C(C[C@H]1NCCC[C@@H]1O)Cn1cnc2cc(Br)c(Cl)cc2c1=O	L929	EC50	Calf isolate		<0.032 µg/mL
CCCN(CCC)c1c([N+](=O)[O-])cc(C(F)(F)F)cc1[N+](=O)[O-]	MDCK	EC50			2 µM
O=c1cc(-c2ccc(O)c(O)c2)oc2cc(O)cc(O)c12	HCT-8	EC50			>100 µM
CCc1nc(N)nc(N)c1-c1ccc(Cl)cc1	L929	EC50	Calf isolate		<0.8 µg/mL
CCCN(CCC)c1c([N+](=O)[O-])cc(S(C)(=O)=O)cc1[N+](=O)[O-]		EC50			4.5 µM
NS(=O)(=O)c1cc([N+](=O)[O-])c(N(CCO)CCO)c([N+](=O)[O-])c1	MDCK cells	EC50		ELISA / luminescence	>10 µM
Nc1ncnc2c1ncn2Cc1c(F)cccc1Cl	L929	EC50	Calf isolate		<0.8 µg/mL
CCC(CC)Nc1c([N+](=O)[O-])cc(C(F)(F)F)cc1[N+](=O)[O-]	MDCK cells	EC50		ELISA / luminescence	0.67 µM
CO[C@@]12[C@H](COC(N)=O)C3=C(C(=O)C(C)=C(N)C3=O)N1C[C@@H]1N[C@@H]12	HCT-8	EC50			<1 µM
OO		EC50			500–750 µM
NC[C@@H]1O[C@H](O[C@H]2[C@@H](O)[C@H](O[C@@H]3[C@@H](O)[C@H](N)C[C@H](N)[C@H]3O[C@H]3O[C@H](CO)[C@@H](O)[C@H](O)[C@H]3N)O[C@@H]2CO)[C@H](N)[C@@H](O)[C@@H]1O	MDCK	EC50	Iowa bovine isolate	antigen	92.3 µM
CO[C@@H]1[C@@H](OC)[C@H](C)[C@@](O)(CC(=O)O)O[C@H]1[C@H](C)[C@H]1O[C@@]2(CC[C@@](C)([C@H]3CC[C@@](C)([C@@H]4O[C@@H]([C@H]5O[C@](C)(O)[C@H](C)C[C@@H]5C)C[C@@H]4O[C@@H]4C[C@H](OC)[C@@H](OC)[C@H](C)O4)O3)O2)C[C@H](O)[C@H]1C		MIC			0.5 µg/mL
CCCNc1c([N+](=O)[O-])cc(C(F)(F)F)cc1[N+](=O)[O-]	MDCK cells	EC50		ELISA / luminescence	1.39 µM
CCCCCCCCCCOc1cc2c(=O)c(C(=O)OCC)c[nH]c2cc1OCC		EC50			>50 µM
Nc1nc(N)c2c(n1)NC(c1sc(Cl)nc1Cl)CC(c1ccc(Cl)cc1)=N2		MFC	IM 052470	broth dilution	62.5 µg/mL
O=C(O[C@@H]1Cc2c(O)cc(O)cc2O[C@@H]1c1cc(O)c(O)c(O)c1)c1cc(O)c(O)c(O)c1	HCT-8	EC50			>100 µM
NC(=O)c1nc[nH]c1C(N)=O	L929	EC50	Human isolate		>4 µg/mL
CCC(=O)CCCCC[C@@H]1NC(=O)[C@H]2CCCCN2C(=O)[C@H](C(C)CC)NC(=O)[C@H](Cc2cn(OC)c3ccccc23)NC1=O		MIC			0.03 µg/mL
CO[C@H]1/C=C/O[C@@]2(C)Oc3c(C)c(O)c4c(O)c(c(/C=N/N5CCN(C)CC5)c(O)c4c3C2=O)NC(=O)/C(C)=C\C=C\[C@H](C)[C@H](O)[C@@H](C)[C@@H](O)[C@@H](C)[C@H](OC(C)=O)[C@@H]1C		EC50		cell count	>50 µM
CN[C@@H]1[C@@H](O)[C@@H](O[C@@H]2[C@@H](O)[C@H](O[C@H]3O[C@H]([C@@H](C)O)[C@@H](O)[C@H](O)[C@H]3N)[C@@H](N)C[C@H]2N)OC[C@]1(C)O	APH-CACO-2	EC50			<1000 µg/mL
COc1cc([C@@H]2c3cc4c(cc3[C@@H](O[C@@H]3O[C@@H]5CO[C@@H](c6cccs6)O[C@H]5[C@H](O)[C@H]3O)[C@H]3COC(=O)[C@H]23)OCO4)cc(OC)c1O	HCT-8	EC50			>1 µM

A second listing of 4 rows from above:

SMILES,cells,read-out,strain,method,value
CC(=O)N[C@@H](CC(C)C)C(=O)N[C@@H](CC(C)C)C(=O)N[C@H](C=O)CCCN=C(N)N,,EC50,,cell count / microscopy,<500 µg/mL
CO[C@@H]1[C@@H](OC)[C@H](C)[C@@](O)(CC(=O)O)O[C@H]1[C@H](C)[C@H]1O[C@@]2(CC[C@@](C)([C@H]3CC[C@@](C)([C@@H]4O[C@@H]([C@H]5O[C@](C)(O)[C@H](C)C[C@@H]5C)C[C@@H]4O[C@@H]4C[C@H](OC)[C@@H](OC)[C@H](C)O4)O3)O2)C[C@H](O)[C@H]1C,,MIC,,,0.5 µg/mL
CC[C@H]1OC(=O)[C@H](C)[C@@H](O[C@H]2C[C@@](C)(OC)[C@@H](O)[C@H](C)O2)[C@H](C)[C@@H](O[C@@H]2O[C@H](C)C[C@H](N(C)C)[C@H]2O)[C@](C)(O)C[C@@H](C)CN(C)[C@H](C)[C@@H](O)[C@]1(C)O,,EC50,,cell count,>50 µM
CCc1nc(N)nc(N)c1-c1ccc(Cl)cc1,L929,EC50,Calf isolate,,<0.8 µg/mL

Blank or dashed fields: not listed here. ECn is the concentration giving n% inhibition of infection, replication or growth. a–b is a range or a potency band.